Data as given in PubChem BioAssay AID504761 (Drosophila RNAi Screening Center, 2011).

Test: 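Insect host genes that dengue virus relies on to spread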 (primary screen)
Cells: D.Mel-2 cells from Drosophila
Reagents: long dsRNA against Drosophila genes
Treatment: infection with dengue virus type 2; dose and infection time not stated
Measurement: 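Per well on two replicate plates, imaging gave the percent of cells positive for viral envelope protein, ranked by infection, and a nuclear count of cells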
Reading the numbers: infection score: higher = more virus-infected cells; cell count: higher = more cells in the well
Rule for the call: 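Very low infection ranking in both replicate wells (chance probability at most 0.065), then a retest showing infection dropped 1.5-fold or more at p below 0.05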
Calls: active = confirmed: knock-down lowers infection; inactive = not picked or not confirmed
In all, the deposit lists about 22,000 reagents; below is an unselected part of those that have a named target and a result. Over the whole deposit, 116 (0.52%) were called active. 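Calls depend on retest data that are not deposited; infection was ranked per plate without normalising between plates; the unit of the infection score is not given.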 Raw values are not corrected between plates. Reagents against one gene are numbered here. A plus sign joins genes that one reagent is predicted to hit. Reagent sequences are not shown. Not given: the amount of reagent, the time to read-out.

no.	gene knocked down	reagent no.	infection score, replicate 1	infection score, replicate 2	cell count, replicate 1	cell count, replicate 2	Call
1	His-Psi:CR31616 + His-Psi:CR31615	1	7.84	5.94	5023	5273	inactive
2	Gat	1	1.29	2.91	6739	6314	inactive
3	MED6	1	26.7	26.9	5855	5971	inactive
4	CNMa	1	3.6	3.03	6200	6241	inactive
5	CG2652	1	24	13.8	5482	5187	inactive
6	CG2652	2	2	1.03	6648	6703	inactive
7	CG2652	3	2.45	4.27	6482	6366	inactive
8	CG6041	1	3.47	22	835	4736	inactive
9	CG6041	2	4.79	2.05	6874	6695	inactive
10	CG6788	1	1.18	8.63	6594	5668	inactive
11	CG6788	2	5.38	2.86	6006	6044	inactive
12	CG5614	1	12.3	9.53	5817	6277	inactive
13	CG11858	1	3.04	4.36	6216	6448	inactive
14	CG11858	2			388	231	inactive

The list goes on, starting with the last 3 of the part before.
no.	gene knocked down	reagent no.	infection score, replicate 1	infection score, replicate 2	cell count, replicate 1	cell count, replicate 2	Call
12	CG5614	1	12.3	9.53	5817	6277	inactive
13	CG11858	1	3.04	4.36	6216	6448	inactive
14	CG11858	2			388	231	inactive
15	PLCXD	1	5.97	3.46	6722	6784	inactive
16	DIP1	1	0.43	5.5	6110	7127	inactive
17	DIP1	2	15.4	11.4	6287	6166	inactive
18	CG42331	1	11.5	2.26	3931	6372	inactive
19	CG42331	2	9.52	3.23	2016	1891	inactive
20	CG42331	3	0.66	0.59	6339	6291	inactive
21	GstD4	1	11.4	11.9	6590	6460	inactive
22	GstD4	2	4.65	13.8	6259	5409	inactive
23	CG18210 (retired record)	1	2.54	7.45	6334	5971	inactive
24	CG18210 (retired record)	2	1.59	1.62	6176	6098	inactive
